One data set has as its system VcDciA (Vibrio cholerae). Briefly: BLI. The settings on record: 1 mM ATP, BLI: 50 mM Hepes pH 7.0, 150 mM NaCl, 0.1% Tween, temperature not stated, recombinant protein, protein details: N-terminal 6His.
Data set [1] concerns VcDciA[1-111] (Vibrio cholerae). Briefly: NMR. The settings on record: NMR: 20 mM phosphate pH 5.6, 50 mM NaCl, 303 K (also 293 K), 26 uM protein, recombinant protein.
Where [2] appears, read: affinity similar to ssDNA, label: 5' biotin on strand 1.
Where [3] appears, read: shifts at R2, R5, K26, fast exchange.

The exact form of at least one protein or probe is not confirmed.

Consider “AAGCGTGGTGAAACCTACCTCTGATTCGAAACCTTCACTTTACGTGGTCTGGCGTGGTGAATGTTCGTCGGCGTGCTCGA / CCAGGAATACGGCAAGTTGGAGGCCGGGCTGGATGGAGACTAAGCTTTGGAAGTGAAGGTTTCGAATCAGAGGTAGGTTTCACCACGC [foDNA oso23/oso18]”, for which the binding result with VcDciA (Vibrio cholerae) (setting [2]) was “binds”.

With “AAGCGTGGTGAAACCTACCTCTGATTCGAAACCTTCACTTTACGTGGTCTGGCGTGGTGAATGTTCGTCGGCGTGCTCGA / TCGAGCACGCCGACGAACATTCACCACGCCAGACCACGTAAAGTGAAGGTTTCGAATCAGAGGTAGGTTTCACCACGC [dsDNA oso23/oso24]”, the binding result in the data set with VcDciA (Vibrio cholerae) (setting [2]) was “binds”. For the sequence “AAGCGTGGTGAAACCTACCTCTGATTCGAAACCTTCACTTTACGTGGTCTGGCGTGGTGAATGTTCGTCGGCGTGCTCGA [ssDNA oso23]”, the binding result with VcDciA (Vibrio cholerae) (0.1-1 uM protein, not 1:1 binding, label: 5' biotin, single-stranded DNA) is listed as “binds”. On to “GCTGTACCGACTAGCAAT (double strand) [dsDNA NMR]”, for which the binding result in data set [1] (setting [3]) is recorded as “binds”. Regarding GCTGTACCGACTAGCAAT [ssDNA NMR], the binding result in data set [1] (shifts at R2, R5, K26, slightly less impact than other DNAs, single-stranded DNA) is “binds”. With “GCTGTACCGTTTTTTTTT / TTTTTTTTTCGGTACAGC [foDNA NMR]”, the binding result in data set [1] (setting [3]) is recorded as “binds”. Consider “TTTTTTTTTCGGTACAGC / GCTGTACCG [5'ext DNA NMR]”, for which the binding result in data set [1] (setting [3]) was “binds”.
